Columns and labels:
[1] = target: AE.A244 gp120 (HIV-1)
[2] = target: T1, C.CAP206 gp140CF.12 (HIV-1); test: ELISA
T1 chain: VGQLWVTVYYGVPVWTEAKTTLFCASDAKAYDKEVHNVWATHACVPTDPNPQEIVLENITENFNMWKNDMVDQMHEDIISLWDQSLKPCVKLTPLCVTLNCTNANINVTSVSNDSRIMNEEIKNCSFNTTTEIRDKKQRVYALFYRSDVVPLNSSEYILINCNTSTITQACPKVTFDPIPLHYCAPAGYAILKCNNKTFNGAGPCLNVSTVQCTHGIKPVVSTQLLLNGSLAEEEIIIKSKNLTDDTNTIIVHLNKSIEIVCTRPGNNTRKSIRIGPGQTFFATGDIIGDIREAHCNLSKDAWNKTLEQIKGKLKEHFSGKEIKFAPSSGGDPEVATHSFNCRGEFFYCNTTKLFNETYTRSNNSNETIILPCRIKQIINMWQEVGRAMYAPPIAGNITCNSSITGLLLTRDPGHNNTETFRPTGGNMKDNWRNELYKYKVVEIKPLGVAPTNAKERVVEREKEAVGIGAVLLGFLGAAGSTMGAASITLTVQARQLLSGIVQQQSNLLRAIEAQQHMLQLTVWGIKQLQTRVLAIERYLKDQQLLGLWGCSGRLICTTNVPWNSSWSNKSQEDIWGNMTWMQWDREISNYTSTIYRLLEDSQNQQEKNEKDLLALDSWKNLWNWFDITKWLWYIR

[3] = target: T2, AE.97CNG2XF gp140CF (HIV-1); test: ELISA
T2 construct: also called E.97CNGX2F gp140CF
T2 chain: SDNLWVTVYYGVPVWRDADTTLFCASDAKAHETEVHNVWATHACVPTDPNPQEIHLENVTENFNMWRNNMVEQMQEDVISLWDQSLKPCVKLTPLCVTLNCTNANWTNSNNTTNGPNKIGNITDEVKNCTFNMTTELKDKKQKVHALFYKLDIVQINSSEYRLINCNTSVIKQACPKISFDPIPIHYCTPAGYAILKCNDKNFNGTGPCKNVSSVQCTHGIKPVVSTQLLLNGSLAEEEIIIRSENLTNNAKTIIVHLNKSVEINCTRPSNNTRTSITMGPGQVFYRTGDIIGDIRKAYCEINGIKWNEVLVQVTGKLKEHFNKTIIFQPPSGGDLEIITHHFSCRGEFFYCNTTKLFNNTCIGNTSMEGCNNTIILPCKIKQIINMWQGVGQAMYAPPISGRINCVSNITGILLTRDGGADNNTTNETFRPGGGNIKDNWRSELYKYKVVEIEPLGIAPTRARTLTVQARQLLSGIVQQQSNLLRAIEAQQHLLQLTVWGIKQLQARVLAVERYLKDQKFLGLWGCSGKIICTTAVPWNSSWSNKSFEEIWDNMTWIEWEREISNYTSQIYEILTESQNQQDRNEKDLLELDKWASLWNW

[4] = target: T3, G.con 140CF; test: ELISA OD405nm, bar chart, antibody concentration not given
T3 construct: also called G.con gp140CF; G.con.env03 gp140CF
T3 chain: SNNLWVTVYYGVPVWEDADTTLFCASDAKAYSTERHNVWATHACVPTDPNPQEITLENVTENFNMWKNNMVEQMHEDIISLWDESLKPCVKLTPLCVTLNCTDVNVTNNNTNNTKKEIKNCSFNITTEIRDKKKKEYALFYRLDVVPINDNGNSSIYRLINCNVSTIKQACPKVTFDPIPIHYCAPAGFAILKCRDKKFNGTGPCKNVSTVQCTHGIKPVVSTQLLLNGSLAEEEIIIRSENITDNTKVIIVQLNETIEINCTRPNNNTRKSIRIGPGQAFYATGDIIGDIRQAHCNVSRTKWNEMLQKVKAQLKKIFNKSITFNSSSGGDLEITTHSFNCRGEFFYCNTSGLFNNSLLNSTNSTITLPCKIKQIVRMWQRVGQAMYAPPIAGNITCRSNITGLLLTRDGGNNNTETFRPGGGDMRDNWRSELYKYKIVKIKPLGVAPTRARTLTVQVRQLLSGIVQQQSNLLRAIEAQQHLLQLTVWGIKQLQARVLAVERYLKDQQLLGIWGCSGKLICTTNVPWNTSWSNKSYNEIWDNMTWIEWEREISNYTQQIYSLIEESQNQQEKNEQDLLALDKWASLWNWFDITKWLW

[5] = target: T4, B.con env03 140CF; test: as above
T4 construct: also called B.con gp140CF

[6] = target: T5, AE.con env03 40CF; test: as above
T5 construct: also called AE.con gp140CF; AE.con.env03 gp140CF
T5 chain: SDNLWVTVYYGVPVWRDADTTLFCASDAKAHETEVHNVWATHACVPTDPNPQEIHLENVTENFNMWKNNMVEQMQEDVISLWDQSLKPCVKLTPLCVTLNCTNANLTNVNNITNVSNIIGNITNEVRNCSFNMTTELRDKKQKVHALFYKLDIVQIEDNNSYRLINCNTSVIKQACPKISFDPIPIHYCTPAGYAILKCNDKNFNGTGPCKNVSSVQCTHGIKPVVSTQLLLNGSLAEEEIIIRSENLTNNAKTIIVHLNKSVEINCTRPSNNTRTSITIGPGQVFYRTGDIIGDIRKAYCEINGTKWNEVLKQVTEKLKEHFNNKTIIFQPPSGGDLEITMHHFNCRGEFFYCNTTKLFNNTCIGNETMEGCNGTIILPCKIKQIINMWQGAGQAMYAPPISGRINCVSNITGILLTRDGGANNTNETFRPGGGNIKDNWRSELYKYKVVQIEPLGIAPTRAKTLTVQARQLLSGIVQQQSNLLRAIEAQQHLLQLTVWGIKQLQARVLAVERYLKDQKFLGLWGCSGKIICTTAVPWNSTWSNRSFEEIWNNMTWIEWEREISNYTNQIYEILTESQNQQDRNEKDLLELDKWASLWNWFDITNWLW

[7] = target: B.040 gp140C; test: as above
[8] = target: T6, J08 C.97ZA012V1V2 (HIV-1); test: as above
T6 chain: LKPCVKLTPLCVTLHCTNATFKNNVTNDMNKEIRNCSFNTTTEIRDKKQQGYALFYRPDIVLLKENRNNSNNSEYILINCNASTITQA

[9] = target: B.9021 gp140C (HIV-1); test: as above

B1: CH58 (antibody, V domains shown)
VH: EVQLVQSGAEVKKPGESLKISCKGSGYRFTSYWIVWVRQMPGKGLEWMGIIYPGDFDTKYSPSFQGQVTISADKSISTAYLQWSSLKASDTAMYYCARLGGRYYHDSSGYYYLDYWGQGTLVTVSS
VL: NFMLTQPHSVSESPGKTVTISCTRSSGSVASDYVQWYQQRPGSAPTTVVYEDNQRPSGVPDRFSGSIDSSSNSASLTISGLKTEDEADYYCQSYDNSSWVFGGGTKLTVL
For B1, the IC50 [1] was under 10 nM, the EC50 [2] was 1 nM and the EC50 [3] was 0.07 µg/mL. B1: no binding (tested: not given) [4]; no binding (tested: not given) [5]; binds [6]. B1: no binding (tested: not given) [7]; no binding (tested: not given) [8]; no binding (tested: not given) [9].
